Results of unrelated studies side by side (data: NIAID ChemDB).

Common to all: whole-cell or culture tests; organism: Mycobacterium tuberculosis

MIC bound: limit read from a one-dose screen. ECn: concentration that inhibits the pathogen or its effect by n%. Rows are shuffled and stem from different studies. Blank or dashed fields: not listed here. Inhibition is in % at the dose shown (toxicity tests: loss of growth or viability). MIC50, MIC90 and the like: level of inhibition, or share of isolates inhibited. a–b is a range or a potency band.

SMILES	cells	conditions	read by	tested at	strain	read-out	result
S=C(SSC(=S)N1CCOCC1)N1CCOCC1			BACTEC	128 µg/mL	H37Rv	inhibition	100%
O=[N+]([O-])c1cn2c(n1)OC[C@@H](OCc1ccc(Oc3ccc(C(F)(F)F)cc3)nc1)C2			resazurin			MIC90	0.04 µM
O=c1c(Br)c(-c2ccccc2)oc2ccccc12					H37Rv	MIC	>12.5 µg/mL
C/C(=N/NC(=S)N1CCC(C)CC1)c1nccnc1C					KM-R	MIC	1.6 µg/mL
CC(NNC(=O)c1ccncc1)c1ccc(F)cc1	Macrophages	inside macrophages	colony count		Erdman	EC90	1.84 µg/mL
O=[N+]([O-])c1cn2c(n1)OC[C@@H](OCc1ccc(N3CCC(Oc4ccc(C(F)(F)F)nc4)CC3)cc1)C2			low oxygen			MIC90	0.95 µM
CCC1Cn2cc([N+](=O)[O-])nc2O1					H37Rv-T2 (PA-824-resistant)	MIC	0.8 µM
COc1ccc(O)c(C(=O)/C=C/c2ccco2)c1					H37Rv	MIC	>12.5 µg/mL
COC(=O)C(CO)NC(=O)C(CO)NC(=O)OCc1ccccc1			BACTEC		H37Rv	MIC bound	>12.8 µg/mL
COc1ccc(/C=C/C(=O)c2ccc(Cl)cc2O)cc1					H37Rv	MIC	>12.5 µg/mL
O=C(N/N=C/c1cccc(C(F)(F)F)c1)c1ccncc1	Macrophages	inside macrophages	colony count		Erdman	EC50	<0.047 µg/mL
O=C(/C=C/c1ccccc1)c1cccc(Br)c1O					H37Rv	MIC	>12.5 µg/mL
O=C(Nc1ccc(NC(=O)Oc2cccc3ccccc23)c2c1C(=O)c1ccccc1C2=O)Oc1cccc2ccccc12			BACTEC		H37Rv	MIC bound	>12.5 µg/mL
NNC(=O)c1ccncc1					PR326	MIC	0.08 µg/mL
COc1c(N2CCNC(C)C2)c(F)cc2c(=O)c(C(=O)O)cn(C3CC3)c12					Strain 34	MIC	0.125 µg/mL
CCOC(=O)C1CCCCC12Nc1cccc3cccc(c13)N2			BACTEC	12.8 µg/mL	H37Rv	inhibition	31%
O=C(NNCc1cccc(C(F)(F)F)c1)c1ccncc1					H37Rv (ethambutol-resistant)	MIC	1.95 µg/mL
CC(=O)Oc1ccccc1C(=O)Nc1ncc([N+](=O)[O-])s1			visual reading		LAM spoligotype 42	MIC	12 µg/mL
CO[C@H]1/C=C/O[C@@]2(C)Oc3c(C)c(O)c4c(O)c(c5c(c4c3C2=O)NC2(CCN(CC(C)C)CC2)N=5)=NC(=O)/C(C)=C\C=C\[C@H](C)[C@H](O)[C@@H](C)[C@@H](O)[C@@H](C)[C@H](OC(C)=O)[C@@H]1C					16 strains (rifampicin-susceptible)	MIC90	0.05 µg/mL
O=C(/C=C/c1ccccc1)c1cc(-c2ccccc2)ccc1O				12.5 µg/mL	H37Rv	inhibition	68%
CC(C)=C[C@H](O)C[C@@H](C)[C@H]1CC[C@@]2(C)C3=C(CC[C@]12C)[C@@]1(C)CCC(=O)C(C)(C)[C@@H]1CC3					H37Rv	MIC	64–128 µg/mL
CO[C@H]1/C=C/O[C@@]2(C)Oc3c(C)c(O)c4c(O)c(c5c(c4c3C2=O)NC2(CCN(CC(C)C)CC2)N=5)=NC(=O)/C(C)=C\C=C\[C@H](C)[C@H](O)[C@@H](C)[C@@H](O)[C@@H](C)[C@H](OC(C)=O)[C@@H]1C					3181-5 (RIF-S)	MIC	0.03 µg/mL
COC[C@]12CN(C=O)[C@@H]3C4[C@H](OC)[C@H]1C3([C@@H](OC)C[C@H]2O)[C@@H]1C[C@@]2(O)C(OC(=O)c3ccccc3)[C@@H]1[C@]4(OC(C)=O)C(O)[C@@H]2OC			BACTEC		H37Rv	MIC bound	>12.5 µg/mL
O=[N+]([O-])c1cn2c(n1)OC[C@@H](OCc1ccc(N3CCN(c4ccc(OC(F)(F)F)cc4)CC3)nc1)C2			resazurin			MIC90	0.05 µM
COc1ccc2cc1-c1cc(ccc1O)C[C@@H]1NCCc3cc4c(cc31)Oc1c(c(OC)cc3c1[C@H](C2)N(C)CC3)O4			resazurin		H37Rv-PZA-R ATCC 35828	MIC	6.2 µg/mL
NS(=O)(=O)c1ccc(NC(=O)c2cccn3c(=O)c4ccccc4nc23)cc1			resazurin		H37Rv	MIC bound	>6.25 µg/mL
COc1cc(-n2cc(CNC3c4ccccc4-c4ccccc43)nn2)cc(OC)c1OC			broth dilution		Specimen 192	MIC99	58.34 µM
Cc1c(N2CC(C)OC(C)C2)c([N+](=O)[O-])cc2c(=O)c(C(=O)O)cn(-c3ccc(F)cc3F)c12					H37Rv	MIC	6.61 µM
O=[N+]([O-])c1cn2c(n1)OC[C@@H](OCc1ccc(Oc3ccc(OC(F)(F)F)cc3)cn1)C2			low oxygen			MIC90	0.87 µM
Clc1ccc(-n2cc(CNC3c4ccccc4-c4ccccc43)nn2)cc1			broth dilution		Specimen 192	MIC99	268 µM
Cc1c(N2CCC3(CC2)OCCO3)c([N+](=O)[O-])cc2c(=O)c(C(=O)O)cn(C(C)(C)C)c12					H37Rv	MIC	14.03 µM
O=[N+]([O-])c1cn2c(n1)OC[C@@H](OCc1ccc(C#Cc3ccc(C(F)(F)F)cn3)cn1)C2			low oxygen			MIC90	1.6 µM
Cc1c(N2C[C@@H](C)O[C@@H](C)C2)c([N+](=O)[O-])cc2c(=O)c(C(=O)O)cn(C3CC3)c12					H37Rv	MIC	0.97 µM
Cc1nc(C(N)=O)c(N)n1N			BACTEC	12.5 µg/mL	H37Rv	inhibition	82%
Cc1cc(O)c2ncccc2c1					M 607	MIC50	5 µg/mL
Cc1nc2cccc(F)c2c(=O)n1-c1nnc(C2CC2)s1			resazurin	6.25 µg/mL	H37Rv	inhibition	-19%
C=C(C)[C@@H]1CC[C@]2(C(=O)O)CC[C@]3(C)[C@H](CC[C@@H]4[C@@]5(C)CC[C@@H](O)C(C)(C)[C@@H]5CC[C@]43C)[C@@H]12					H37Rv	MIC	64 µM
CCCCSc1ccc2n(c1)cc(-c1ccc(/C=N/NC(=O)c3ccc(C(=O)N/N=C/c4ccc(-c5cn6cc(SCCCC)ccc6[n+]5C)cc4)cc3)cc1)[n+]2C.Cc1ccc(S(=O)(=O)[O-])cc1			BACTEC	12.5 µg/mL	H37Rv	inhibition	22%
O=[N+]([O-])c1cn2c(n1)OC[C@@H](OCc1ccc(OC(F)(F)F)cc1)C2					H37Rv-5A2 (PA-824-resistant)	MIC	>100 µM
C/C(=N\NC(=O)c1ccncc1)c1ccccc1F					H37Rv	MBC	1.56 µg/mL
CC(C)=CCC/C(C)=C/CO					H37Rv	MIC	64 µg/mL
Cc1c(N2CCN(C(=O)C3COc4ccccc4O3)CC2)c([N+](=O)[O-])cc2c(=O)c(C(=O)O)cn(-c3ccc(F)cc3F)c12					H37Rv	MIC	>20.61 µM
NNC(=O)/C(NC(=O)c1ccccc1)=C(\N)c1ccc(Cl)cc1			BACTEC		H37Rv	MIC bound	>12.5 µg/mL
O=C(NNCc1ccccc1F)c1ccncc1					Ciprofloxacin-resistant	MIC	0.78 µg/mL
COc1ccccc1NC(=O)C1=C(C)NC(C)=C(C(=O)Nc2ccccc2OC)C1c1ccccc1Cl				2.5 µg/mL	H37Rv	inhibition	37%
O=[N+]([O-])c1cn2c(n1)OC[C@@H](OCc1ccc(C#Cc3ccc(C(F)(F)F)cn3)cc1)C2			low oxygen			MIC90	6.9 µM
Cc1cccc(Cl)c1N=Nc1c(C)nn(C(N)=S)c1C			BACTEC		H37Rv	MIC bound	>12.5 µg/mL
O=[N+]([O-])c1cn2c(n1)OC[C@@H](OCc1ccc(Oc3ccc(F)cc3)cn1)C2			low oxygen			MIC90	12 µM
CC(=O)O[C@@H]1CC[C@]23C[C@]24CC[C@]2(C)[C@@H]([C@H](C)CC[C@H]5OC5(C)C)CC[C@@]2(C)[C@@H]4CC[C@H]3C1(C)C					H37Rv	MIC	>128 µg/mL
Nc1ccccc1/C=C/C(=O)c1ccc(Br)cc1O					H37Rv	MIC	>12.5 µg/mL
COc1ccc(C2C(C(=O)Nc3ccccc3Cl)=C(C)NC(C)=C2C(=O)Nc2ccccc2Cl)cc1				2.5 µg/mL	H37Rv	inhibition	30%
COc1ccc(-c2oc3cc(I)ccc3c(=O)c2O)cc1					H37Rv	MIC	>12.5 µg/mL
CO[C@H]1/C=C/O[C@@]2(C)Oc3c(C)c(O)c4c(O)c(c5c(c4c3C2=O)NC2(CCN(CC(C)C)CC2)N=5)=NC(=O)/C(C)=C\C=C\[C@H](C)[C@H](O)[C@@H](C)[C@@H](O)[C@@H](C)[C@H](OC(C)=O)[C@@H]1C					Isolate 900233 drug-susceptible	MIC	0.063 µg/mL
CCc1nc2c(O)cccc2cc1C					M 607	MIC50	5–10 µg/mL
Cc1c(N2CCC(n3c(=O)[nH]c4cc(Cl)ccc43)CC2)c([N+](=O)[O-])cc2c(=O)c(C(=O)O)cn(C(C)(C)C)c12					H37Rv	MIC	>22.56 µM
Cc1cccc(NCC(=O)NN)c1			BACTEC		H37Rv	MIC	≥12.5 µg/mL
O=[N+]([O-])c1cn2c(n1)OC[C@@H](OCc1ccc(Oc3ccc(F)cc3)nc1)C2			low oxygen			MIC90	2 µM
CCCc1ccc(O)c2ncccc12					M 607	MIC50	25 µg/mL
COc1ccc(-n2cc(CSC3c4ccccc4-c4ccccc43)nn2)cc1			broth dilution		H37Rv	MIC99	129.7 µM
COc1ccccc1NC(=O)C1=C(C)NC(C)=C(C(=O)Nc2ccccc2OC)C1c1ccc(N(C)C)cc1				2.5 µg/mL	H37Rv	inhibition	93%
CN=C(N)c1ccc(N=C(N)c2ccc(C(N)=Nc3ccc(C(N)=NC)cc3)cc2)cc1.Cl.Cl.Cl.Cl			BACTEC		H37Rv	MIC bound	>12.5 µg/mL
O=C(/C=C/c1cccc(Cl)c1)c1ccccc1O					H37Rv	MIC	20.3 µg/mL
Cc1c(N2CCn3cc(C(=O)O)nc3C2)c([N+](=O)[O-])cc2c(=O)c(C(=O)O)cn(C3CC3)c12					H37Rv	MIC	0.42 µM
COc1cc2c(oc(=O)c3cc(C)cc(OC)c32)c2c(C3OC(C)C(O)C(C)(O)C3O)ccc(O)c12					KM-R	MIC	6.3 µg/mL
FC(F)(F)c1ccc(-n2cc(CSC3c4ccccc4-c4ccccc43)nn2)cc1			broth dilution		H37Rv	MIC99	>236 µM
C[C@H]1COc2c(N3CCN(C)CC3)c(F)cc3c(=O)c(C(=O)O)cn1c23					Strain 325	MIC	0.25 µg/mL
Cc1ccc2cccc(O)c2n1					M 607	MIC50	>25 µg/mL
O=S(=O)(Cc1cn(-c2ccccc2)nn1)C1c2ccccc2-c2ccccc21			broth dilution		H37Rv	MIC99	>258 µM
CCCCc1ccc(O)c2ncccc12					M 607	MIC50	10–25 µg/mL
CC1=CC[C@@H](O)[C@]2(C)CC[C@@H]3[C@H](OC(=O)[C@H]3C)[C@@H]12					H37Rv	MIC	>128 µg/mL
COc1ccc(C2C(C(=O)Nc3cc(C)ccc3C)=C(C)NC(C)=C2C(=O)Nc2cc(C)ccc2C)cc1					H37Rv	EC50	>2.5 µg/mL
CN=C(N)N/N=C(\C)c1ccc2oc3ccc(/C(C)=N/NC(N)=NC)cc3c2c1			BACTEC	12.5 µg/mL	H37Rv	inhibition	0%
Cc1cccc(C(N)=Nc2nc(-c3ccccn3)cc3ccccc23)c1					J-2912	MIC	0.5 µg/mL
Cc1ncc([N+](=O)[O-])n1CCN(C)C(=O)CCCn1ccnc1[N+](=O)[O-]			resazurin	6.25 µg/mL	H37Rv	inhibition	4%
CC(NNC(=O)c1ccncc1)c1cccc(C(F)(F)F)c1					H37Rv (ethambutol-resistant)	MIC	≤0.49 µg/mL
Cc1cccc2c1NC(=O)C2=O			resazurin	6.25 µg/mL	H37Rv	inhibition	-5%
O=C(/C=C/c1cccnc1)c1ccc(F)cc1					H37Rv	MIC	48.3 µg/mL
CC1=C(O)NC(CC(=O)C(O)CO)=CN1			BACTEC	12.5 µg/mL	H37Rv	inhibition	19%
NC[C@@H]1O[C@H](O[C@H]2[C@@H](O)[C@H](O[C@@H]3[C@@H](O)[C@H](N)C[C@H](N)[C@H]3O[C@H]3O[C@H](CO)[C@@H](O)C[C@H]3N)O[C@@H]2CO)[C@H](N)[C@@H](O)[C@@H]1O[C@H]1O[C@H](CO)[C@@H](O)[C@H](O)[C@@H]1O					5 strains	MIC	50 µg/mL
CNc1ccc(Cl)cc1S(=O)(=O)c1ccccc1[N+](=O)[O-]			BACTEC		H37Rv	MIC bound	>12.5 µg/mL
COc1ccc2cc1-c1cc(ccc1O)C[C@H]1c3cc4c(cc3CCN1C)Oc1c(OC)cc3c(c1O4)[C@H](C2)N(C)CC3			resazurin		H37Ra	MIC	3.1 µg/mL

For reference, 7 entries again:

SMILES,cells,conditions,read by,tested at,strain,read-out,result
Clc1ccc(-n2cc(CNC3c4ccccc4-c4ccccc43)nn2)cc1,,,broth dilution,,Specimen 192,MIC99,268 µM
CC1=C(O)NC(CC(=O)C(O)CO)=CN1,,,BACTEC,12.5 µg/mL,H37Rv,inhibition,19%
Nc1ccccc1/C=C/C(=O)c1ccc(Br)cc1O,,,,,H37Rv,MIC,>12.5 µg/mL
O=[N+]([O-])c1cn2c(n1)OC[C@@H](OCc1ccc(Oc3ccc(F)cc3)nc1)C2,,,low oxygen,,,MIC90,2 µM
COc1ccccc1NC(=O)C1=C(C)NC(C)=C(C(=O)Nc2ccccc2OC)C1c1ccc(N(C)C)cc1,,,,2.5 µg/mL,H37Rv,inhibition,93%
COc1ccc(C2C(C(=O)Nc3ccccc3Cl)=C(C)NC(C)=C2C(=O)Nc2ccccc2Cl)cc1,,,,2.5 µg/mL,H37Rv,inhibition,30%
CC(NNC(=O)c1ccncc1)c1ccc(F)cc1,Macrophages,inside macrophages,colony count,,Erdman,EC90,1.84 µg/mL